Pooled drug test results. Numbers come from NIAID ChemDB, via PubChem.

Shared fields: cytotoxicity tests; read-out: CC50

CCn is the concentration with n% toxicity to the cells. Conditions beyond the fields shown may differ between rows. Blank or dashed fields: not listed here.

structure	method	cell line	setting	value
CCC(NC(=O)C1CCC1C(=O)[C@@H](NC(=O)[C@@H](NC(=O)c1cnccn1)C1CCCCC1)C(C)(C)C)C(=O)C(=O)NC1CC1	-	PBM	-	>100 µM
Cc1ccc(/C=C/C=C/C(=O)[Se]c2ccccc2)cc1	WST	Li-7	-	>100 µM
Cc1ccc(-c2cc(C(F)(F)F)nn2-c2ccc(S(N)(=O)=O)cc2)cc1	luminescence	Jurkat cells	-	>100 µM
CCCCN(CCCC)c1ccc(C2(O)CCN(CCCC(=O)c3ccc(F)cc3)CC2)cc1	-	COSA5	-	10 µM
CC[C@@H](CO)NCCN[C@@H](CC)CO	-	THP-1 monocytes	-	350 µg/mL
Clc1ccc(Cn2cc(/C=N/Nc3nncs3)c3ccccc32)cc1	MTT	Fibroblast L929 cell line	24 h	>100 µg/mL
Cn1c2ccccc2c2c3c(c4c5ccccc5n(CCC#N)c4c21)CNC3=O	-	U1/HIV-1(PMA)	-	0.18 µM
O=C(COCC(=O)N/N=C/c1ccccc1O)N/N=C/c1ccccc1O	MTT	RAW 264.7	-	44.64 µM
CC(=O)NC1NC(c2ccccc2)(c2cccc(Cl)c2)c2ccccc2NC1=O	-	HEP-2	-	3 µM
CC(C)OC(=O)[C@H](C)NP(=O)(OC[C@H]1O[C@@H](n2ccc(=O)[nH]c2=O)[C@](C)(F)[C@@H]1O)Oc1ccccc1	-	Replicon cells	-	>50 µM
CC(C)[C@@H]1NC(=O)[C@H](C)OC(=O)[C@@H](C(C)C)NC(=O)[C@@H](C(C)C)OC(=O)[C@H](C(C)C)NC(=O)[C@H](C)OC(=O)[C@@H](C(C)C)NC(=O)[C@@H](C(C)C)OC(=O)[C@H](C(C)C)NC(=O)[C@H](C)OC(=O)[C@@H](C(C)C)NC(=O)[C@@H](C(C)C)OC1=O	luminescence	Jurkat cells	-	0.4 µM
O=C(NCc1ccc(Br)cc1)NC1N=C(c2ccccc2)c2ccccc2NC1=O	-	HEP-2	-	2 µM
CO[C@H]1/C=C/O[C@@]2(C)Oc3c(C)c(O)c4c(O)c(c(/C=N/N5CCN(C)CC5)c(O)c4c3C2=O)NC(=O)/C(C)=C\C=C\[C@H](C)[C@H](O)[C@@H](C)[C@@H](O)[C@@H](C)[C@H](OC(C)=O)[C@@H]1C	resazurin / fluorescence	RAW 264.7	-	700 µg/mL
O=C(COCC(=O)N/N=C/c1ccc(F)cc1)N/N=C/c1ccc(F)cc1	MTT	RAW 264.7	-	25.57 µM
CC[C@@]1([C@@H]2O[C@@H]([C@H]3O[C@@](O)(CO)[C@H](C)C[C@@H]3C)C[C@@H]2C)CC[C@H]([C@]2(C)CC[C@]3(C[C@H](O)[C@@H](C)[C@@H]([C@@H](C)[C@@H](OC)[C@H](C)C(=O)O)O3)O2)O1	luminescence	Jurkat cells	-	0.1 µM
C(=N\Nc1nncs1)/c1cn(CC2CCC2)c2ccccc12	MTT	Fibroblast L929 cell line	24 h	>100 µg/mL
O=C(/C=C/c1ccccc1)[Se]c1ccccc1	WST	Li-7	-	>100 µM
COc1ccc(S)cc1C(=O)NC1N=C(c2ccccc2)c2ccccc2NC1=O	-	HEP-2	-	3.8 µM
CCN(CCN(C)C)c1ccc(C(=O)CCCN2CCC(O)(c3ccc(Cl)cc3)CC2)cc1	-	COSA5	-	60 µM
COc1cc([C@@H]2c3cc4c(cc3[C@H](O)[C@H]3COC(=O)[C@@H]23)OCO4)cc(OC)c1OC	luminescence	Jurkat cells	-	0.7 µM
COc1ccc(/C=C/C=C/C(=O)[Se]c2ccccc2)cc1	WST	Li-7	-	>100 µM
O=C(CCCN1CCC(O)(c2ccc(Cl)cc2)CC1)c1ccc(F)cc1	-	COSA5	-	500 µM
Fc1ccccc1Cn1cc(/C=N/Nc2nncs2)c2ccccc21	MTT	Fibroblast L929 cell line	24 h	>100 µg/mL
CCCCN(CCCC)c1cccc(C2(O)CCN(CCCC(=O)c3ccc(F)cc3)CC2)c1	-	COSA5	-	10 µM
C=CC(CO)C(=C)Cn1cnc2c(=O)[nH]c(N)nc21	-	MT-4 (T-CELL)	-	<3.57 µg/mL
CCCCCCn1cc(/C=N/Nc2nncs2)c2ccccc21	MTT	Fibroblast L929 cell line	24 h	>100 µg/mL
Nc1ncn([C@@H]2O[C@H](CO)[C@@H](O)[C@H]2O)c(=O)n1	luminescence	Jurkat cells	-	>100 µM
COc1ccc(/C=N/NC(=O)COCC(=O)N/N=C/c2ccc(OC)c(OC)c2C(=O)O)c(C(=O)O)c1OC	MTT	RAW 264.7	-	48.12 µM
Cc1cn([C@H]2C[C@H](N=[N+]=[N-])[C@@H](CO)O2)c(=O)[nH]c1=O	-	CFU-GM	-	0.9 µM
O=C(/C=C/C=C/c1ccc(Br)cc1)[Se]c1ccccc1	WST	Li-7	-	>100 µM
CC(=O)N(O)CCCCCNC(=O)CCC(=O)N(O)CCCCCNC(=O)CCC(=O)N(O)CCCCCN	-	PBLC	-	<100 µM
COc1cc(/C=C/c2ccc3ccc(C(=O)O)c(O)c3n2)cc(O)c1O	MTT	HeLaP4	-	>100 µM
O=C(/C=C/C=C/c1ccccc1)[Se]c1ccccc1	WST	HLE	-	>100 µM
CN(C)c1ccc(O)c2c1C[C@H]1C[C@H]3[C@H](N(C)C)C(=O)C(C(N)=O)=C(O)[C@@]3(O)C(=O)C1=C2O	luminescence	Jurkat cells	-	>100 µM
Cc1cn([C@H]2C[C@H](N=[N+]=[N-])[C@@H](CO)O2)c(=O)nc1N	-	BFU-E	-	≥100 µM
Cc1ccccc1/C=N/NC(=O)COCC(=O)N/N=C/c1ccccc1C	MTT	RAW 264.7	-	43.85 µM
CC(C)Cc1ccc(C(C)C(=O)NCc2ccc(N)cc2)cc1	resazurin / fluorescence	RAW 264.7	-	200 µg/mL
O=C(Nc1c(F)cccc1F)NC1N=C(c2ccccc2)c2ccccc2NC1=O	-	HEP-2	-	9.4 µM
O=C(/C=C/C=C/c1ccc(O)c(O)c1)[Se]c1ccccc1	WST	Li-7	-	>100 µM
O=c1c(O)c(-c2ccc(O)c(O)c2)oc2cc(O)cc(O)c12	-	MIT-23	-	>10 µM
CCCCCn1cc(/C=N/Nc2nncs2)c2ccccc21	MTT	Fibroblast L929 cell line	24 h	32.92 µg/mL
Cc1cc(C)cc(NC(=O)NC2N=C(c3ccccc3)c3ccccc3NC2=O)c1	-	HEP-2	-	1.5 µM
COC(=O)[C@]1(C)CCC[C@]2(C)c3ccc(C(C)C)cc3C(=O)CC12	luminescence	Jurkat cells	-	>100 µM
O=C(COCC(=O)N/N=C/c1ccccc1F)N/N=C/c1ccccc1F	MTT	RAW 264.7	-	36.34 µM

For reference, 2 entries again:

structure | method | cell line | setting | value
O=C(/C=C/c1ccccc1)[Se]c1ccccc1 | WST | Li-7 | - | >100 µM
CC(=O)NC1NC(c2ccccc2)(c2cccc(Cl)c2)c2ccccc2NC1=O | - | HEP-2 | - | 3 µM